PubChem BioAssay AID1259414 | Drosophila RNAi Screening Center, 2018

Aim: 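Genome-wide screen for host control of endosymbiont load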 (primary screen)
Cell system: Drosophila JW18 cells infected with Wolbachia
Reagents: long dsRNA against Drosophila genes, 0.25 µg dsRNA per well of a 384-well plate
Time to read-out: 5 days
Treatment: cells persistently infected with Wolbachia before knock-down; no added drug
Read-out: 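Imaged fluorescence in situ signal for Wolbachia 23S rRNA per DAPI-counted host cell, given as a robust z-score within each plate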
Direction: Wolbachia per cell robust z: higher = more Wolbachia per host cell than the plate typical
Hit rule: 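Active if absolute robust z reaches 1.5 in two or more of three replicates, leaving out multi- or no-target dsRNAs, genes unexpressed in JW18 and A1 wells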
In all, the deposit lists about 24,000 reagents; below is a random part of those with a known target gene and a result. In the full data, about 1,210 (5%) were called active. 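Inactive calls also include excluded dsRNAs with several or no targets, genes unexpressed in JW18, and well A1, regardless of score.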 A number with no mark means an inactive call. A plus sign joins genes that one reagent is predicted to hit.

Polr2M (RNA polymerase II subunit M) [DRSC15513]
- Wolbachia per cell robust z, rep 1: 0.748
- Wolbachia per cell robust z, rep 2: 0.993
- Wolbachia per cell robust z, rep 3: 0.732

Polr2M (RNA polymerase II subunit M) [DRSC25856]
- Wolbachia per cell robust z, rep 1: -0.662
- Wolbachia per cell robust z, rep 2: -0.939
- Wolbachia per cell robust z, rep 3: -0.0383

CG14818 [DRSC18548]
- Wolbachia per cell robust z, rep 1: -0.0938
- Wolbachia per cell robust z, rep 2: 0.74
- Wolbachia per cell robust z, rep 3: 0.15

CG14818 [DRSC29496]
- Wolbachia per cell robust z, rep 1: -0.728
- Wolbachia per cell robust z, rep 2: -1.03
- Wolbachia per cell robust z, rep 3: -0.522

CG42564 [DRSC12518]
- Wolbachia per cell robust z, rep 1: 0.248
- Wolbachia per cell robust z, rep 2: 0.842
- Wolbachia per cell robust z, rep 3: 0.323

CG42564 [DRSC41466]
- Wolbachia per cell robust z, rep 1: 0.619
- Wolbachia per cell robust z, rep 2: 0.0533
- Wolbachia per cell robust z, rep 3: 0.134

Inx7 + cm [DRSC18753]
- Wolbachia per cell robust z, rep 1: -0.0117
- Wolbachia per cell robust z, rep 2: -0.0025
- Wolbachia per cell robust z, rep 3: -0.661

exd (extradenticle) [DRSC20330]
- Wolbachia per cell robust z, rep 1: -0.0314
- Wolbachia per cell robust z, rep 2: 1.1
- Wolbachia per cell robust z, rep 3: -3.27

exd (extradenticle) [DRSC30099]
- Wolbachia per cell robust z, rep 1: 1.05
- Wolbachia per cell robust z, rep 2: 1.83
- Wolbachia per cell robust z, rep 3: 0.83

exd (extradenticle) [DRSC41279]
- Wolbachia per cell robust z, rep 1: -1.62
- Wolbachia per cell robust z, rep 2: 0.307
- Wolbachia per cell robust z, rep 3: -0.584

Atac3 (Ada2a-containing complex component 3) [DRSC08579]
- Wolbachia per cell robust z, rep 1: 0.356
- Wolbachia per cell robust z, rep 2: -1.77
- Wolbachia per cell robust z, rep 3: 0.876

Rgk1 (Rad, Gem/Kir family member 1) [DRSC05785]
- Wolbachia per cell robust z, rep 1: 0.412
- Wolbachia per cell robust z, rep 2: 1.14
- Wolbachia per cell robust z, rep 3: 1.33

Rgk1 (Rad, Gem/Kir family member 1) [DRSC05786]
- Wolbachia per cell robust z, rep 1: 0.0276
- Wolbachia per cell robust z, rep 2: 0.791
- Wolbachia per cell robust z, rep 3: 0.249

Rgk1 (Rad, Gem/Kir family member 1) [DRSC07343]
- Wolbachia per cell robust z, rep 1: 0.403
- Wolbachia per cell robust z, rep 2: 0.213
- Wolbachia per cell robust z, rep 3: 0.642

Rgk1 (Rad, Gem/Kir family member 1) [DRSC23535]
- Wolbachia per cell robust z, rep 1: 1.14
- Wolbachia per cell robust z, rep 2: 0.852
- Wolbachia per cell robust z, rep 3: 0.278

Rgk1 (Rad, Gem/Kir family member 1) [DRSC25970]
- Wolbachia per cell robust z, rep 1: -0.506
- Wolbachia per cell robust z, rep 2: -0.344
- Wolbachia per cell robust z, rep 3: -1.74

Jon25Bii (Jonah 25Bii) [DRSC03114]
- Wolbachia per cell robust z, rep 1: -6.54
- Wolbachia per cell robust z, rep 2: 0.782
- Wolbachia per cell robust z, rep 3: -0.537

Jon25Bii (Jonah 25Bii) [DRSC29193]
- Wolbachia per cell robust z, rep 1: -2.7
- Wolbachia per cell robust z, rep 2: 0.248
- Wolbachia per cell robust z, rep 3: 0.21

CG10301 [DRSC14226]
- Wolbachia per cell robust z, rep 1: -1.36
- Wolbachia per cell robust z, rep 2: -2.55
- Wolbachia per cell robust z, rep 3: 0.271

CG9525 [DRSC03249]
- Wolbachia per cell robust z, rep 1: -0.221
- Wolbachia per cell robust z, rep 2: 0.676
- Wolbachia per cell robust z, rep 3: 1.68

CalpA (Calpain-A) [DRSC07352]
- Wolbachia per cell robust z, rep 1: 0.0351
- Wolbachia per cell robust z, rep 2: 1.06
- Wolbachia per cell robust z, rep 3: 0.29

CG33230 [DRSC08602]
- Wolbachia per cell robust z, rep 1: 0.431
- Wolbachia per cell robust z, rep 2: -0.446
- Wolbachia per cell robust z, rep 3: -0.46

CG10907 [DRSC09804]
- Wolbachia per cell robust z, rep 1: -0.583
- Wolbachia per cell robust z, rep 2: 0.976
- Wolbachia per cell robust z, rep 3: -0.346

CG46281 + CG46280 [DRSC14505]
- Wolbachia per cell robust z, rep 1: 0.551
- Wolbachia per cell robust z, rep 2: 0.381
- Wolbachia per cell robust z, rep 3: 0.527

kl-2 (male fertility factor kl2) [DRSC21136]
- Wolbachia per cell robust z, rep 1: -1.04
- Wolbachia per cell robust z, rep 2: -1.11
- Wolbachia per cell robust z, rep 3: -0.634

kl-2 (male fertility factor kl2) [DRSC37780]
- Wolbachia per cell robust z, rep 1: 0.424
- Wolbachia per cell robust z, rep 2: -1.67
- Wolbachia per cell robust z, rep 3: 0.282

trus (toys are us) [DRSC15772]
- Wolbachia per cell robust z, rep 1: 0.535
- Wolbachia per cell robust z, rep 2: 0.0451
- Wolbachia per cell robust z, rep 3: 0.144

trus (toys are us) [DRSC25521]
- Wolbachia per cell robust z, rep 1: -1.65 (active)
- Wolbachia per cell robust z, rep 2: -6.14
- Wolbachia per cell robust z, rep 3: 0.439

CG18598 [DRSC15356]
- Wolbachia per cell robust z, rep 1: 0.281
- Wolbachia per cell robust z, rep 2: -3.94
- Wolbachia per cell robust z, rep 3: -0.292

CG14230 [DRSC19586]
- Wolbachia per cell robust z, rep 1: 1.29
- Wolbachia per cell robust z, rep 2: 0.567
- Wolbachia per cell robust z, rep 3: 0.326
